Pooled drug test results. Numbers come from NIAID ChemDB, via PubChem.

All rows: tests in culture; agent: HIV-2; method: MTT; endpoint: EC50

Blank or dashed fields: not listed here. Rows are shuffled and stem from different studies. ECn is the concentration giving n% inhibition of infection, replication or growth.

structure	cells	strain or isolate	value
O=C(NC1CCN(C(=O)c2ccccc2)CC1)c1cc(O)c(O)c(O)c1	MT-4	ROD	>38.3 µM
Cc1cc(C)c(Oc2ncc([N+](=O)[O-])c(Nc3ccc(C#N)cc3)n2)c(C)c1	MT-4	ROD	>252 µM
NC(=O)c1ccc(Cn2cc(CSc3nc(Cc4cccc5ccccc45)cc(=O)[nH]3)nn2)cc1		ROD	>105 µM
COc1ccc(CN2CCC(N=C3C=C(Cc4cccc5ccccc45)NS(=O)(=O)N3)CC2)cc1	MT-4	ROD	>119 µM
Cc1cc(C#Cc2ccccn2)cc(C)c1Oc1ccnc(Nc2ccc(C#N)cc2)n1	MT-4	ROD	>2.068 µM
COc1ccc(Cn2cc(CSc3nc(Cc4cccc5ccccc45)cc(=O)[nH]3)nn2)cc1		ROD	>68.53 µM
N#Cc1ccc(Nc2nccc(C(O)c3ccc4ccccc4c3)n2)cc1	MT-4	ROD	>35.5 µM
Nc1nc2c(ncn2CCOCP(=O)(O)O)c(=O)[nH]1	C8166	CBL-20	1.1 µM
Cc1cc(C#N)cc(C)c1Oc1ccc(N)c(NC2CCN(Cc3ccc(S(N)(=O)=O)cc3)CC2)n1	MT-4	ROD	>24 µM
CC(=O)Nc1nc(C)c(S(=O)(=O)N2CCC(NC(=O)c3cc(O)c(O)c(O)c3)CC2)s1	MT-4	ROD	>80 µM
N#Cc1ccc(CN2CCC(N=C3C=C(Cc4ccc(Cl)cc4Cl)NS(=O)(=O)N3)CC2)cc1	MT-4	ROD	>107 µM
NCCNc1ccc2[nH]ccc2c1	MT-4	ROD	>253 µM
Cc1cc(C#N)cc(C)c1Oc1ccc([N+](=O)[O-])c(NC2CCN(Cc3ccc(C(N)=O)cc3)CC2)n1	MT-4	ROD	>27 µM
O=S1(=O)N=C(Nc2ccccc2)C=C(Cc2ccccc2)N1	MT-4	ROD	>292 µM
C#Cc1ccc(Nc2nccc(Oc3c(C)cc(-c4cn(Cc5ccc(C(N)=O)cc5)nn4)cc3C)n2)cc1	MT-4	ROD	>13.84 µM
Cc1cc(C=O)cc(C)c1Oc1ncc(NC(=O)C(F)(F)F)c(Nc2ccc(C#N)cc2)n1	MT-4	ROD	>216 µM
Cc1cn([C@H]2C[C@H](N=[N+]=[N-])[C@@H](CO)O2)c(=O)[nH]c1=O	MT-4	ROD	0.006 µM
Cc1cccc(C)c1Oc1ccnc(Nc2ccc(C#N)cc2)n1	MT-4	ROD	>12.1 µM
Cc1c(CCC2CCCCC2)nc(SCC(=O)c2ccc(O)cc2)[nH]c1=O	MT-4	ROD	8.2 µM
NC(=NCCNc1ccc2[nH]ccc2c1)N[N+](=O)[O-]	MT-4	ROD	>400 µM
N#Cc1cccc(CN2CCC(N=C3C=C(Cc4ccc(Cl)cc4Cl)NS(=O)(=O)N3)CC2)c1	MT-4	ROD	>99.87 µM
Cc1cc(-c2ccc(C#N)cc2)cc(C)c1Oc1nc(Nc2ccc(C#N)cc2)nc2ccsc12	MT-4	ROD	1.4 µM
COc1cc(NC2=NS(=O)(=O)NC(Cc3ccc4ccccc4c3)=C2)cc(OC)c1OC	MT-4	ROD	>204 µM
O=C(NC1CCN(S(=O)(=O)c2ccccc2)CC1)c1cc(O)c(O)c(O)c1	MT-4	ROD	>127.8 µM
C#Cc1ccc(Nc2nccc(Oc3c(C)cc(-c4cn(CC(=O)Nc5ccc(S(C)(=O)=O)cc5)nn4)cc3C)n2)cc1	MT-4	ROD	>6.36 µM
Cc1cc(/C=C/c2ccccc2)cc(C)c1Oc1ccnc(Nc2ccc(C#N)cc2)n1	MT-4	ROD	>18.5 µM
COc1ccccc1NC1=NS(=O)(=O)NC(Cc2ccccc2)=C1	MT-4	ROD	>268 µM
C=C1[C@H](CO)[C@@H](O)C[C@@H]1n1cnc2c(=O)[nH]c(N)nc21	MT-4	ROD	>4.59 µM
O=C(NC1CCN(C(=O)c2ccc(F)cc2)CC1)c1cc(O)c(O)c(O)c1	MT-4	ROD	>30.8 µM
N#Cc1ccc(Nc2nccc(C(O)c3cccc4ccccc34)n2)cc1	MT-4	ROD	>6.5 µM
O=C([O-])c1c[nH]c2ccc(Cc3ccccc3)cc2c1=O.O=C([O-])c1c[nH]c2ccc(Cc3ccccc3)cc2c1=O.[Mg+2]	MT-4	ROD	>17 µM
O=c1[nH]c(SCc2cn(Cc3ccccc3)nn2)nc(Cc2c(Cl)cccc2Cl)c1I		ROD	>120 µM
CC(=O)OCC1=C[C@H]2[C@@H]3C(C)(C)[C@]3(OC(=O)Cc3ccccc3)C[C@@H](C)[C@]2(O)[C@@H]2C=C(C)C(=O)[C@@]2(O)C1	MT-4	ROD	0.031 µM
NC(=NCCCNc1ccc2[nH]ccc2c1)N[N+](=O)[O-]	MT-4	ROD	>360 µM
NS(=O)(=O)c1ccc(NC2=NS(=O)(=O)NC(Cc3ccccc3)=C2)cc1	MT-4	ROD	>318 µM
C1CNCCNCCCNCCNC1.O=S(=O)([O-])[O-].[O]=[V+2]	MT-4	ROD	>340 µM
O=S1(=O)N=C(Nc2ccc(F)c(F)c2)C=C(Cc2ccccc2)N1	MT-4	ROD	>250 µM
CCc1c(CC2CCCCC2)nc(SCC(=O)c2ccccc2)[nH]c1=O	MT-4	ROD	263 µM
Cc1cn([C@H]2C[C@H](N=[N+]=[N-])[C@@H](CO)O2)c(=O)[nH]c1=O	MT-4	ROD	0.011 µM
C#Cc1ccc(Nc2nccc(Oc3c(C)cc(-c4cn(CCC(=O)OC)nn4)cc3C)n2)cc1	MT-4	ROD	>23.76 µM
Cc1cc(C)c(Oc2ccc([N+](=O)[O-])c(NC3CCN(Cc4ccc(S(C)(=O)=O)cc4)CC3)n2)c(C)c1	MT-4	ROD	>24 µM
Cc1cc(C)c(S(=O)(=O)N2CCC(NC(=O)c3cc(O)c(O)c(O)c3)CC2)c(C)c1	MT-4	ROD	>19.9 µM
Cc1ccnc2c1NC(=O)c1cccnc1N2C1CC1	MT-4	ROD	>4 µM
O=c1[nH]cnc2c1ncn2C1CC[C@@H](CO)O1	MT-4	ROD	2.71 µM
Cc1cc(C#Cc2cccnc2)cc(C)c1Oc1ccnc(Nc2ccc(C#N)cc2)n1	MT-4	ROD	>3.476 µM
N=C(CNC(=O)NCCCNc1ccc2[nH]ccc2c1)N[N+](=O)[O-]	MT-4	ROD	>375 µM
Cc1cc(C#N)cc(C)c1Oc1ncc(NC(=O)C(F)(F)F)c(Nc2ccc(C#N)cc2)n1	MT-4	ROD	>276 µM
Cc1cc(C)cc(S(=O)(=O)N2CCC(NC(=O)c3cc(O)c(O)c(O)c3)CC2)c1	MT-4	ROD	>74 µM
Cc1ccc(NC2=NS(=O)(=O)NC(Cc3ccccc3)=C2)cc1Cl	MT-4	ROD	>175 µM
Cc1cn([C@H]2C=C[C@@H](CO)O2)c(=O)[nH]c1=O	CEM/TK-	ROD	217 µM
CC1=C[C@H]2[C@@]3(O)[C@H](C)[C@@H](O)[C@]4(O)[C@H]([C@@H]3C=C(O)C[C@]2(O)C1=O)C4(C)C	MT-4	ROD	>343 µM
Cc1cc(C)c(Oc2ccc([N+](=O)[O-])c(NC3CCN(Cc4ccc(C(N)=O)cc4)CC3)n2)c(C)c1	MT-4	ROD	>19 µM
Cc1cc(C)c(CN2CCC(N=C3C=C(Cc4cccc5ccccc45)NS(=O)(=O)N3)CC2)c(C)c1	MT-4	ROD	>70.22 µM
Nc1ccn([C@H]2CC[C@@H](CO)O2)c(=O)n1	MT-4	ROD	1.56 µM
N#Cc1ccc(Nc2nc(Oc3ccc(-c4ccc(C#N)cc4)c(Cl)c3)c3sccc3n2)cc1	MT-4	ROD	75.8 µM
O=[N+]([O-])c1ccc(CN2CCC(N=C3C=C(Cc4ccc(Cl)cc4Cl)NS(=O)(=O)N3)CC2)cc1	MT-4	ROD	>97.06 µM
Cc1c(C(C)C2CCCCC2)nc(SCC(=O)c2ccc(O)cc2)[nH]c1=O	MT-4	ROD	13 µM
CCCC(=O)O[C@@]12C[C@@H](C)[C@@]3(O)[C@@H](C=C(COC(C)=O)C[C@]4(O)C(=O)C(C)=C[C@@H]34)[C@@H]1C2(C)C	MT-4	ROD	0.2 µM
C#Cc1ccc(Nc2nccc(Oc3c(C)cc(-c4cn(-c5ccc(C(=O)OC)cc5)nn4)cc3C)n2)cc1	MT-4	ROD	>242 µM
Cc1cc(C#Cc2ccccc2)cc(C)c1Oc1ccnc(Nc2ccc(C#N)cc2)n1	MT-4	ROD	>3.29 µM
CCc1c(CCC2CCCCC2)nc(SCC(=O)c2ccc(O)cc2)[nH]c1=O	MT-4	ROD	132 µM
COP(=O)(O)C[C@H](NP(=O)(O)OC[C@@H]1C=C[C@H](n2cc(C)c(=O)[nH]c2=O)O1)C(=O)O	CEM	ROD	1.44 µM
Cc1cc(C#Cc2cccc(N)c2)cc(C)c1Oc1ccnc(NC2CCN(Cc3ccc(S(N)(=O)=O)cc3)CC2)n1	MT-4	ROD	>0.732 µM
N#Cc1ccccc1Cn1cc(CSc2nc(Cc3cccc4ccccc34)cc(=O)[nH]2)nn1		ROD	>105 µM
N#Cc1ccc(Nc2nc(Oc3ccc(-c4ccc(C#N)cc4)c(F)c3)c3sccc3n2)cc1	MT-4	ROD	36.5 µM
O=C([O-])c1cn(CCO)c2ccc(Cc3ccccc3)cc2c1=O.O=C([O-])c1cn(CCO)c2ccc(Cc3ccccc3)cc2c1=O.[Mg+2]	MT-4	ROD	>36 µM
CCCC(=O)O[C@@H]1[C@@H](C)[C@@]2(O)[C@@H](CC(=O)C[C@]3(O)C(=O)C(C)=C[C@@H]23)[C@@H]2C(C)(C)[C@]12OC(=O)CCC	MT-4	ROD	>35 µM
N#Cc1ccc(Nc2nc(Oc3ccc(-c4ccc(C#N)cc4)cc3C(F)(F)F)c3sccc3n2)cc1	MT-4	ROD	95.1 µM
Cc1cn([C@H]2C=C[C@@H](COP(=O)(O)O)O2)c(=O)[nH]c1=O	CEM/TK-	ROD	170 µM
N#Cc1ccc(Nc2nc(Oc3c(Cl)cccc3Cl)ncc2[N+](=O)[O-])cc1	MT-4	ROD	>206 µM
CC(C)c1nc(C(=O)NCc2ccc(F)cc2)c(O)c(=O)n1C	MT-4	ROD	0.086 µM
N#Cc1ccc(Nc2nc(Oc3c(Cl)cc(Cl)cc3Cl)ncc2[N+](=O)[O-])cc1	MT-4	ROD	>25 µM
O=c1[nH]c(SCc2cn(Cc3ccc(F)cc3)nn2)nc(Cc2c(Cl)cccc2Cl)c1I		ROD	>92.05 µM
C=C1[C@H](CO)[C@@H](O)C[C@@H]1n1cnc2c(=O)[nH]c(N)nc21	MT-4	ROD	>28 µM
CN=C(N)NCCNc1ccc2[nH]ccc2c1	MT-4	ROD	>277 µM
Cc1ccnc2c1NC(=O)c1cccnc1N2C1CC1	MT-4	ROD	>15 µM
Cc1cc(Br)cc(C)c1Oc1ncc(NC(=O)C(F)(F)F)c(Nc2ccc(C#N)cc2)n1	MT-4	ROD	36 µM
Cc1ccc(NC2=NS(=O)(=O)NC(Cc3ccc4ccccc4c3)=C2)cc1C	MT-4	ROD	>147 µM
C#Cc1ccc(Nc2nccc(Oc3c(C)cc(-c4cn(CCCC(=O)OC)nn4)cc3C)n2)cc1	MT-4	ROD	>20.15 µM
C[C@H](Cn1cnc2c(=O)[nH]c(N)nc21)OCP(=O)(O)O	C8166	CBL-20	5 µM
Cc1cn([C@H]2C[C@H](N=[N+]=[N-])[C@@H](CO)O2)c(=O)[nH]c1=O	MT-4	ROD	0.013 µM
NCCCNc1ccc2[nH]ccc2c1	MT-4	ROD	>229 µM
COc1ccc(S(=O)(=O)N2CCC(NC(=O)c3cc(O)c(O)c(O)c3)CC2)cc1	MT-4	ROD	>130.5 µM
Cc1cc(C#N)cc(C)c1Oc1ncc([N+](=O)[O-])c(Nc2ccc(C#N)cc2)n1	MT-4	ROD	>274 µM
Cc1c(C(C)C2CCCCC2)nc(SCC(=O)c2ccccc2)[nH]c1=O	MT-4	ROD	259 µM

7 of the rows above, restated:

structure | cells | strain or isolate | value
Cc1cc(C#Cc2cccc(N)c2)cc(C)c1Oc1ccnc(NC2CCN(Cc3ccc(S(N)(=O)=O)cc3)CC2)n1 | MT-4 | ROD | >0.732 µM
Cc1cc(C#Cc2ccccc2)cc(C)c1Oc1ccnc(Nc2ccc(C#N)cc2)n1 | MT-4 | ROD | >3.29 µM
O=C(NC1CCN(S(=O)(=O)c2ccccc2)CC1)c1cc(O)c(O)c(O)c1 | MT-4 | ROD | >127.8 µM
C#Cc1ccc(Nc2nccc(Oc3c(C)cc(-c4cn(CCCC(=O)OC)nn4)cc3C)n2)cc1 | MT-4 | ROD | >20.15 µM
O=C(NC1CCN(C(=O)c2ccccc2)CC1)c1cc(O)c(O)c(O)c1 | MT-4 | ROD | >38.3 µM
N#Cc1ccc(Nc2nc(Oc3ccc(-c4ccc(C#N)cc4)cc3C(F)(F)F)c3sccc3n2)cc1 | MT-4 | ROD | 95.1 µM
C1CNCCNCCCNCCNC1.O=S(=O)([O-])[O-].[O]=[V+2] | MT-4 | ROD | >340 µM